Data reported in patent publication US10907158B2, “Antisense antibacterial compounds and methods” (priority 2015, dated 2021).

Tested on: Burkholderia cenocepacia complex K56-2
Conditions: Pip/Tazo alone, 18 h, MHII

Work on Piperacillin/Tazobactam [Pip/Tazo] yielded an MIC of 64 µg/mL.
